Test results reported in paper PMC2777304 (PLoS Pathogens, 2009).

Experiment: Quinacrine concentration in tissues by quantitative LC/MS/MS
Conditions: 40 mg/kg/day oral, 75 dpi

Compound: CCN(CC)CCCC(C)Nc1c2ccc(Cl)cc2nc2ccc(OC)cc12 (centres unmarked) [quinacrine, Quinacrine dihydrochloride]
- Concentration of quinacrine in the brain (FVB[60–90] mice): 1 µM
- Concentration of quinacrine in the brain (MDR^0/0[60–90] mice): 100 µM

Counter-ions that a name gives are not always drawn.
